Anti-infective test results gathered from many reports (values: NIAID ChemDB through PubChem).

All rows: growth or infection tests; organism: Candida albicans; measure: MIC

Neighbouring rows are from separate reports. An empty or dashed field is not shown.

SMILES	strain or isolate	method	value
C[C@@H]1[C@H](O)[C@@H](C)/C=C/C=C/CC/C=C/C=C/C=C/C=C/C(O[C@H]2O[C@H](C)[C@@H](O)[C@H](N)[C@@H]2O)CC2O[C@](O)(CC(O)C(O)CCC(O)CC(O)CC(O)CC(=O)O[C@H]1C)CC(O)C2C(=O)O	MTCC 227	broth dilution	100 µg/mL
COC(=O)[C@]1(C)CCC[C@]2(C)c3ccc(C(C)C)cc3-c3[nH]c4ccc(C)cc4c3C12	CGMCC 2.2086	-	>100 µg/mL
CC(C)C(=O)OC1C(C)OC(=O)C(CCCCCCCNC(=O)c2ncccc2O)COC(=O)C1Cc1ccccc1	IFO1061	-	100 µg/mL
CN(C)c1ccc(/C=N/NC(=S)Nc2ccc(C(=O)O)cc2)cc1	-	-	1.34 µM
CCCCCCCCO[C@]1([C@@H]2CSC(=O)N2)C[C@H]2C[C@@H](CC[C@H](C)/C=C\CC/C(C)=C\C(=O)O2)O1	ATCC 10231	-	14.7 µM
CC1=CC2C(N)=NC(N)=NC2C=C1c1ccc(N)cc1	ATCC 36082	broth dilution	32 µg/mL
COc1cc(O)c2c(c1)O[C@H](c1ccc(O)cc1)CC2=O	-	-	100 µg/mL
COc1cccc2c1CC(NCc1ccccc1)CC2	-	-	64 µM
CC1(C)NC(=S)NC1=O	CA10	-	>100 µg/mL
O=C(NO)c1ccc(NC(=S)N/N=C/c2ccc(O)cc2)cc1	-	-	2.98 µM
O=C(C[n+]1c2ccccc2cc2[nH]c3ccccc3c21)c1ccccc1	B311	-	31.2 µg/mL
COC(=O)[C@]1(C)CCC[C@]2(C)c3ccc(C(C)C)cc3-c3[nH]c4ccccc4c3C12	CGMCC 2.2086	-	>100 µg/mL
Clc1ccc(COC(Cn2ccnc2)c2ccc(Cl)cc2Cl)c(Cl)c1	-	-	≥0.2 µg/mL
CC/C=C/C(CC)CCC[C@@]1(CC)C[C@H](CC)[C@H](CC(=O)O)OO1	-	-	2.5 µg/mL
COC(=O)CCNC(=S)Nc1ccc(OC)c(OC)c1	ATCC2094	-	68 µg/mL
COc1ccc(/C=N/NC(=S)Nc2ccc(C(=O)NO)cc2)cc1OC	-	-	1.65 µM
CC(C)OC(=O)CCNC(=S)Nc1ccccc1	ATCC2094	-	22 µg/mL
COc1ccnc(C(=O)NC/C=C(\C)C2COC(=O)C(Cc3ccccc3)C(OC(=O)C(C)C)C(C)OC2=O)c1O	IFO1061	-	>100 µg/mL
C=C1CO[C@H]2[C@@H](C)OC(OC[C@@]34C[C@H]5[C@H](C)CC[C@@H]5[C@@]5(C=O)C[C@@H]3C=C(C(C)C)[C@@]45C(=O)O)C[C@@H]12	4711E	-	0.001 µg/mL
CCCCCCCCNC1CCc2ccc(O)cc2C1	-	-	0.0625 µM
CCN1C(=O)C(=O)N(CC)C1=[Se]	CA10	-	3 µg/mL
O=C1/C(=C/c2ccccc2)CN(C(=O)c2ccc(/C=C/C(=O)c3ccc(O)cc3)cc2)C/C1=C\c1ccccc1	1 clinical isolate	-	>32 µg/mL
COc1ccc2c(c1)CCC(NCc1ccccc1)C2	-	-	32 µM
COC(=O)[C@]1(C)CCC[C@]2(C)c3ccc(C(C)C)cc3-c3[nH]c4c(Cl)cccc4c3C12	CGMCC 2.2086	-	>100 µg/mL
c1ccc2c(c1)cc1[nH]c3ccccc3c1[n+]2CC1CCC1	B311	-	125 µg/mL
O=C1/C(=C\c2ccccc2)CN(C(=O)c2ccc(/C=C/C(=O)c3ccc(Cl)c(Cl)c3)cc2)C/C1=C/c1ccccc1	1 clinical isolate	-	>32 µg/mL
CCC(=O)CCCNC(=S)Nc1ccccc1	ATCC2094	-	>128 µg/mL
CCCCCCCCCNC1CCc2ccc(O)cc2C1	-	-	0.0625 µM
CN1C(=O)C(=O)N(C)C1=[Se]	CA10	-	6 µg/mL
C[C@H]1[C@H](O)[C@@H](C)/C=C/C=C/C=C/C=C/C=C/C=C/C=C/[C@H](O[C@@H]2O[C@H](C)[C@@H](O)[C@H](N)[C@@H]2O)C[C@@H]2O[C@](O)(C[C@@H](O)C[C@@H](O)CC[C@H](O)[C@@H](O)C[C@@H](O)CC(=O)O[C@H]1C)C[C@H](O)[C@H]2C(=O)O	ATCC 90028	-	0.06 µg/mL
c1ccc(CCCCC[n+]2c3ccccc3cc3[nH]c4ccccc4c32)cc1	B311	-	125 µg/mL
COc1cccc(C(=O)NCCCCCCCC2COC(=O)C(Cc3ccccc3)C(OC(=O)C(C)C)C(C)OC2=O)c1O	IFO1061	-	25 µg/mL
O=C(NO)c1ccc(NC(=S)N/N=C/c2ccccc2O)cc1	-	-	2.66 µM
CC(C)C(=O)CCCNC(=S)NC1COOc2ccccc21	ATCC2094	-	38 µg/mL
O=C(O)c1ccc(NC(=S)N/N=C/c2ccccc2O)cc1	-	-	2.82 µM
Nc1[nH]c(=O)ncc1F	ATCC 90028	-	0.5 µg/mL
C[C@@H](c1nc(-c2ccc(C#N)cc2)cs1)[C@](O)(Cn1cnnc1)c1ccc(F)cc1F	Isogenic mutant isolate 1	-	0.004 µg/mL
COC(=O)[C@]1(C)CCC[C@]2(C)c3ccc(C(C)C)cc3-c3[nH]c4ccc(Cl)cc4c3C12	CGMCC 2.2086	-	>100 µg/mL
c1ccc([Se][Se]c2ccccc2)cc1	ATCC 44773	broth dilution	16 µg/mL
COC(=O)[C@]1(C)CCC[C@]2(C)c3ccc(C(C)C)cc3-c3[nH]c4c(Br)cccc4c3C12	CGMCC 2.2086	-	>100 µg/mL
COc1ccc(C(=O)/C=C/c2ccc(C(=O)N3C/C(=C\c4ccccc4)C(=O)/C(=C/c4ccccc4)C3)cc2)cc1	1 clinical isolate	-	>32 µg/mL
CCCCCCCCCCNC1CCc2ccc(O)cc2C1	-	-	0.0625 µM
COc1ccc(NC(=S)NCCCC(=O)C(C)C)cc1	ATCC2094	-	20 µg/mL
O=C1/C(=C/c2ccccc2)CN(C(=O)/C=C/c2ccc(Cl)c(Cl)c2)C/C1=C\c1ccccc1	1 clinical isolate	-	>32 µg/mL
C/C(=N\NC(=S)Nc1ccc(C(=O)O)cc1)c1ccc(Cl)cc1	-	-	2.82 µM
CC(=O)CCCNC(=S)Nc1ccc([N+](=O)[O-])cc1	ATCC2094	-	11 µg/mL
C[C@@H]1[C@H](O)[C@@H](C)/C=C/C=C/CC/C=C/C=C/C=C/C=C/C(O[C@H]2O[C@H](C)[C@@H](O)[C@H](N)[C@@H]2O)CC2O[C@](O)(CC(O)C(O)CCC(O)CC(O)CC(O)CC(=O)O[C@H]1C)CC(O)C2C(=O)O	MTCC 227	broth dilution	100 µg/mL
CCC(C)n1ncn(-c2ccc(N3CCN(c4ccc(OC[C@H]5CO[C@](Cn6cncn6)(c6ccc(Cl)cc6Cl)O5)cc4)CC3)cc2)c1=O	-	agar diffusion	12 µg/mL
CC(C)C(=O)CCCNC(=S)Nc1ccc([N+](=O)[O-])cc1	ATCC2094	-	12 µg/mL
CCCCCCCCCCCCCC(=O)O[C@@H]1[C@@H](C)[C@@]2(O)[C@@H](C=C(CO)C[C@]3(O)C(=O)C(C)=C[C@@H]23)[C@@H]2C(C)(C)[C@]12OC(C)=O	ATCC 44859	-	32 µg/mL
CCCC[C@H]1C(=O)O[C@H](C)C(CCCCCCCCCCCNC(=O)c2cccc(NC=O)c2O)C(=O)O[C@@H](C)[C@@H]1OC(=O)CC(C)C	IFO1061	-	25 µg/mL
OC(Cn1cncn1)(Cn1cncn1)c1ccc(F)cc1F	ATCC 90028	-	0.25 µg/mL
CC1=CC2C(N)=NC(N)=NC2C=C1c1ccc(N(C)C)c(C#N)c1	ATCC 36082	broth dilution	>64 µg/mL
Cc1ccc(/C=N/NC(=S)Nc2ccc(C(=O)O)cc2)cc1	-	-	2.36 µM
CCCCC[n+]1c2ccccc2cc2[nH]c3ccccc3c21	B311	-	250 µg/mL
COc1ccnc(C(=O)NCCCC2COC(=O)C(Cc3ccccc3)C(OC(=O)C(C)C)C(C)OC2=O)c1O	IFO1061	-	>100 µg/mL

For reference, 7 entries again:

SMILES | strain or isolate | method | value
Nc1[nH]c(=O)ncc1F | ATCC 90028 | - | 0.5 µg/mL
COc1ccc(NC(=S)NCCCC(=O)C(C)C)cc1 | ATCC2094 | - | 20 µg/mL
COc1ccnc(C(=O)NCCCC2COC(=O)C(Cc3ccccc3)C(OC(=O)C(C)C)C(C)OC2=O)c1O | IFO1061 | - | >100 µg/mL
OC(Cn1cncn1)(Cn1cncn1)c1ccc(F)cc1F | ATCC 90028 | - | 0.25 µg/mL
CC(C)C(=O)CCCNC(=S)Nc1ccc([N+](=O)[O-])cc1 | ATCC2094 | - | 12 µg/mL
CCC(C)n1ncn(-c2ccc(N3CCN(c4ccc(OC[C@H]5CO[C@](Cn6cncn6)(c6ccc(Cl)cc6Cl)O5)cc4)CC3)cc2)c1=O | - | agar diffusion | 12 µg/mL
COc1ccnc(C(=O)NC/C=C(\C)C2COC(=O)C(Cc3ccccc3)C(OC(=O)C(C)C)C(C)OC2=O)c1O | IFO1061 | - | >100 µg/mL